Compound potency records, mixed from different reports. Data source: NIAID ChemDB in PubChem.

All rows: whole-cell or culture tests; organism: Candida albicans

MIC50, MIC90 and the like: level of inhibition, or share of isolates inhibited.

Cc1cc(OCc2nnc3n2N=C(c2cc(F)c(Cl)cc2Cl)/C(=C/c2ccc4c(c2)OCO4)S3)ccc1Cl ; measure: MIC ; value: 6 µg/mL
Oc1cc2ccccc2cc1-c1nnc(NCc2ccccc2)s1 ; strain: ATCC 2091 ; measure: MIC ; value: 125 µg/mL
Cc1ccc(OC(CCn2ccnc2)c2ccccc2)cc1 ; strain: 20 strains ; measure: MIC ; value: 9.4 µg/mL
COc1ccc(C(Cc2cccc(Cl)c2)n2ccnc2)cc1 ; measure: MIC ; value: 44 µg/mL
Oc1cc2ccccc2cc1-c1nnc(NC2CCCCC2)s1 ; strain: ATCC 2091 ; measure: MIC ; value: 250 µg/mL
CCCCc1ccc(NC(=S)c2cc(Cl)ccc2O)cc1 ; strain: ATCC 44859 ; measure: MIC ; value: >125 µM
Fc1cc(C2=Nn3c(COc4ccc(Cl)cc4Cl)nnc3S/C2=C\c2ccc(Cl)cc2Cl)c(Cl)cc1Cl ; measure: MIC ; value: 6 µg/mL
NCCCCNCCCN ; strain: ATCC 14053 ; measure: MIC ; value: >500 µg/mL
COc1ccc(C(Cc2ccccc2[N+](=O)[O-])n2ccnc2)cc1 ; measure: MIC ; value: 97 µg/mL
CC1(C)CC[C@]2(C(=O)O)CC[C@]3(C)C(=CC[C@@H]4[C@@]5(C)CC[C@H](OC6O[C@H](CO)[C@@H](O)[C@H](O)[C@H]6O)[C@@](C)(CO)[C@@H]5CC[C@]43C)[C@@H]2C1 ; strain: ATCC 90029 ; measure: MFC ; value: >100 µg/mL
C=Cn1cc(-c2ccc(Cl)cc2)c(C(c2ccccc2)n2ccnc2)c1 ; measure: MIC ; value: 0.031 µg/mL
CONc1nc([O-])nc2c1[N+](C/C=C(\C)CC/C=C(\C)CC/C=C(\C)CCC=C(C)C)=C=[N+]2C ; method: agar ; strain: ATCC 90028 ; measure: MIC ; value: >16 µg/mL
Cc1c(C(=O)N2CCN(C)CC2)cc(-c2ccc([N+](=O)[O-])cc2)n1-c1ccccc1Cl ; strain: 20 strains ; measure: MIC ; value: >200 µg/mL
Cc1ccc([C@@H](CCn2ccnc2)Oc2ccc(Cl)cc2Cl)cc1 ; strain: 20 strains ; measure: MFC ; value: 7.12 µg/mL
C=CCNC(=S)NNC(=O)Cc1csc2nc(-c3ccc(Br)cc3)cn12 ; strain: ATCC 10231 ; measure: MIC ; value: >32 µg/mL
COC(=O)/C=C/n1cc(-c2ccc(Cl)cc2)c(C(c2ccccc2)n2ccnc2)c1 ; measure: MIC ; value: 0.34 µg/mL
CCCNC(=S)NNC(=O)Cc1csc2nc(-c3ccc(Br)cc3)cn12 ; strain: ATCC 10231 ; measure: MIC ; value: >32 µg/mL
O=C(NNC(=S)NC1CCCCC1)c1cc2ccccc2cc1O ; strain: ATCC 2091 ; measure: MIC ; value: 500 µg/mL
CCC(C)CC(C)CCCCCCCCC(=O)N[C@H]1C[C@@H](O)[C@@H](OCCN)NC(=O)[C@@H]2[C@@H](O)CCN2C(=O)[C@H]([C@@H](O)CCN)NC(=O)[C@H]([C@H](O)[C@@H](O)c2ccc(O)cc2)NC(=O)[C@@H]2C[C@@H](O)CN2C(=O)[C@H]([C@H](C)O)NC1=O ; strain: 50 isolates ; measure: MIC50 ; value: 0.1 µg/mL
C[N-]c1nc(NOC)c2c(n1)[N+](C)=C=[N+]2C/C=C(\C)CC/C=C(\C)CC/C=C(\C)CCC=C(C)C ; method: agar ; strain: ATCC 90028 ; measure: MIC ; value: 2 µg/mL
C=CCN1C(=O)CS/C1=N\NC(=O)Cc1csc2nc(-c3ccc(Br)cc3)cn12 ; strain: ATCC 10231 ; measure: MIC ; value: >32 µg/mL
CCC(C)n1ncn(-c2ccc(N3CCN(c4ccc(OC[C@H]5CO[C@](Cn6cncn6)(c6ccc(Cl)cc6Cl)O5)cc4)CC3)cc2)c1=O ; strain: 50 isolates ; measure: MIC50 ; value: 0.01 µg/mL
CCCN1C(=O)CS/C1=N\NC(=O)Cc1csc2nc(-c3ccc(Br)cc3)cn12 ; strain: ATCC 10231 ; measure: MIC ; value: >32 µg/mL
Fc1cc(C2=Nn3c(CNc4ccccc4)nnc3S/C2=C\c2ccc(Cl)cc2Cl)c(Cl)cc1Cl ; measure: MIC ; value: 12.5 µg/mL
CC(=O)N1CCN(c2ccc(OC[C@H]3CO[C@](Cn4ccnc4)(c4ccc(Cl)cc4Cl)O3)cc2)CC1 ; strain: 50 isolates ; measure: MIC50 ; value: 0.01 µg/mL
FC(F)(F)c1ccc(OC(CCn2ccnc2)c2ccccc2)cc1 ; strain: 20 strains ; measure: MFC50 ; value: 64 µg/mL
Cc1c(C(=O)N(CCO)CCO)cc(-c2ccc([N+](=O)[O-])cc2)n1-c1ccccc1Cl ; strain: 20 strains ; measure: EC50 ; value: >200 µg/mL
CC[C@@H]([C@H](C)O)n1ncn(-c2ccc(N3CCN(c4ccc(OC[C@@H]5CO[C@@](Cn6cncn6)(c6ccc(F)cc6F)C5)cc4)CC3)cc2)c1=O ; strain: 30 isolates ; measure: MIC90 ; value: 1 µg/mL
Fc1ccc(OC(CCn2ccnc2)c2ccccc2)c(F)c1 ; strain: 20 strains ; measure: MFC ; value: 88 µg/mL
Clc1ccc(C(c2c[nH]cc2-c2cccc3ccccc23)n2ccnc2)c(Cl)c1 ; measure: MIC ; value: 0.21 µg/mL
Oc1ccc(Cl)cc1C(=S)Nc1ccc(F)cc1 ; strain: ATCC 44859 ; measure: MIC ; value: 62.5 µM
Cc1c(C(=O)N2CCN(C)CC2)cc(-c2ccc([N+](=O)[O-])cc2)n1Cc1ccccc1 ; strain: 20 strains ; measure: EC50 ; value: >200 µg/mL
Fc1ccc(C(CCn2ccnc2)Oc2ccc(Cl)cc2Cl)cc1 ; strain: 20 strains ; measure: MIC ; value: 2.55 µg/mL
COc1ccc(/C=C2\Sc3nnc(CNc4ccc(Cl)cc4)n3N=C2c2cc(F)c(Cl)cc2Cl)cc1OC ; measure: MIC ; value: 6 µg/mL
Cc1c(O)cccc1C(=O)N[C@@H](CSc1ccccc1)[C@H](O)CN1C[C@H]2CCCC[C@H]2C[C@H]1C(=O)NC(C)(C)C ; strain: I139A ; measure: MIC ; value: >64 µg/mL
C[C@@H]1O[C@@H](O[C@H]2[C@H](O)[C@@H](O)C(OC3[C@H](O[C@H]4CC[C@]5(C)[C@H]6CC=C7[C@@H]8CC(C)(C)CC[C@]8(C(=O)O)CC[C@@]7(C)[C@]6(C)CC[C@H]5C4(C)C)OC[C@H](O)[C@@H]3O)O[C@@H]2CO)[C@H](O)[C@H](O)[C@H]1O ; strain: Clinical isolates ; measure: MFC ; value: >100 µg/mL
CO[N-]c1nc(C)nc2c1[N+](C/C=C(\C)CC/C=C(\C)CC/C=C(\C)CCC=C(C)C)=C=[N+]2C ; method: agar ; strain: ATCC 90028 ; measure: MIC ; value: 4 µg/mL
Fc1cc(C2=Nn3c(COc4ccccc4)nnc3S/C2=C\c2ccc(Cl)cc2)c(Cl)cc1Cl ; measure: MIC ; value: 12.5 µg/mL
Clc1ccc(-c2cn(-c3ccccc3)cc2C(c2ccccc2)n2ccnc2)cc1 ; measure: MIC ; value: 1.5 µg/mL
C[C@H](CCC(=O)NCCS(=O)(=O)O)[C@H]1CC[C@H]2[C@@H]3CC[C@@H]4C[C@H](OS(=O)(=O)O)CC[C@]4(C)C3CC[C@]12C ; strain: ATCC 14053 ; measure: MIC ; value: >500 µg/mL
Oc1ccc(Cl)cc1C(=S)Nc1ccc(Cl)cc1 ; strain: ATCC 44859 ; measure: MIC ; value: 31.3 µM
Fc1ccc(CCCCn2c3c(c4cc(F)ccc42)CNCC3)cc1 ; strain: OY2-76 ; measure: MIC ; value: 1 µg/mL
N=C(N)c1ccc2nc(-c3ccc(-c4nc5ccc(C(=N)N)cc5[nH]4)[nH]3)[nH]c2c1 ; strain: Isolate 3022 fluconazole-resistant ; measure: MFC ; value: 0.78 µg/mL
Cc1c(C(=O)N(CCO)CCO)cc(-c2ccc([N+](=O)[O-])cc2)n1-c1ccc(Cl)cc1Cl ; strain: 20 strains ; measure: EC50 ; value: >200 µg/mL
CCCCCC(O)CC(=O)CCc1ccc(O)c(OC)c1 ; strain: CN1A ; measure: MIC ; value: 750 µg/mL
CCCCCCn1c(-c2ccc([N+](=O)[O-])cc2)cc(C(=O)N(CCO)CCO)c1C ; strain: 20 strains ; measure: EC50 ; value: >200 µg/mL
COc1ccc(/C=C2\Sc3nnc(COc4ccc(Cl)c(C)c4)n3N=C2c2cc(F)c(Cl)cc2Cl)cc1OC ; measure: MIC ; value: 12.5 µg/mL
CC1(C)CC[C@]2(C(=O)O)CC[C@]3(C)C(=CC[C@@H]4[C@@]5(C)CC[C@H](OC6O[C@H](CO)[C@@H](O)[C@H](O)[C@H]6OC6O[C@H](CO)[C@@H](O)[C@H](O)[C@H]6O)C(C)(C)[C@@H]5CC[C@]43C)[C@@H]2C1 ; strain: Y0109 ; measure: MFC ; value: >100 µg/mL
Fc1cc(C2=Nn3c(CNc4ccc(Cl)cc4)nnc3S/C2=C\c2ccc(Cl)cc2)c(Cl)cc1Cl ; measure: MIC ; value: 6 µg/mL
COC(=O)c1cc2ccccc2cc1-c1n[nH]c(=S)n1Cc1ccccc1 ; strain: ATCC 2091 ; measure: MIC ; value: 250 µg/mL
C[C@@H]1O[C@@H](O[C@H]2[C@H](O)[C@@H](O)C(OC3[C@H](O[C@H]4CC[C@@]5(C)[C@@H](CC[C@]6(C)[C@@H]5CC=C5[C@@H]7CC(C)(C)CC[C@]7(C(=O)O)CC[C@]56C)[C@]4(C)CO)OC[C@H](O)[C@@H]3O)O[C@@H]2CO)[C@H](O)[C@H](O)[C@H]1O ; strain: ATCC 90029 ; measure: MFC ; value: 25 µg/mL

The first 4 rows once more:

SMILES	method	strain	measure	value
Cc1cc(OCc2nnc3n2N=C(c2cc(F)c(Cl)cc2Cl)/C(=C/c2ccc4c(c2)OCO4)S3)ccc1Cl			MIC	6 µg/mL
Oc1cc2ccccc2cc1-c1nnc(NCc2ccccc2)s1		ATCC 2091	MIC	125 µg/mL
Cc1ccc(OC(CCn2ccnc2)c2ccccc2)cc1		20 strains	MIC	9.4 µg/mL
COc1ccc(C(Cc2cccc(Cl)c2)n2ccnc2)cc1			MIC	44 µg/mL

ECn is the concentration giving n% inhibition of infection, replication or growth. Conditions beyond the fields shown may differ between rows. An empty or dashed field is not shown.